Results of unrelated studies side by side (data: NIAID ChemDB).

Shared fields: tests in culture; agent: Hepatitis B virus; method: PCR; measure: EC50

ECn: concentration that inhibits the pathogen or its effect by n%. Two numbers with a dash give a range or band. An empty or dashed field is not shown. Lines come from different laboratories, so protocols vary.

Cn1nc2cc(NS(=O)(=O)c3cnn(-c4cccc(F)c4F)c3)ccc2c1C(=O)Nc1ccc(F)c(Cl)c1 ; cells: HepAD38 ; result: <100 µM
CCOC(=O)C1=C(CN2CC(F)(F)[C@@H]3[C@H]2CON3C[C@@H](O)C(C)(C)C(=O)O)NC(c2nccs2)=N[C@H]1c1cccc(F)c1Cl ; cells: HepG2.2.15 ; result: 0.024 µM
COc1ccc(-n2c(C(=O)N[C@H](C)c3ccccc3)c3n(c2=O)CCN(C(=O)c2ccc(Br)c(Cl)c2)C3)cn1 ; cells: HepG2.117 ; result: 0.1–0.5 µM
Cn1cc(S(=O)(=O)NC2CCN(C(=O)C(=O)NC3(C)CC3)CC2(F)F)c(Cl)c1C(=O)Nc1cc(F)c(F)c(F)c1 ; cells: HepAD38 cells ; result: <0.1 µM
Cn1cc(S(=O)(=O)Nc2cc3nn(C)c(C(=O)Nc4ccc(F)c(Cl)c4)c3cn2)cn1 ; cells: HepAD38 ; result: 100–1000 µM
CNC(=O)c1ccc(-n2c(=O)c3c(n4ncc([C@H](C)c5ccccc5)c24)CN(C(=O)c2ccc(Br)c(C#N)c2)CC3)cc1 ; cells: HepG2.117 ; setting: 3 d ; result: <0.1 µM
Cc1cc(C)n(-c2nc3c(c(=O)n2-c2ccc(N4CCN(C(C)C)CC4)nc2)C[C@@H](C)N(C(=O)c2ccc(Br)c(C(F)(F)F)c2)C3)n1 ; cells: HepG2.117 ; strain or isolate: Genotype D ; result: ≤0.05 µM
COC(=O)C1=C(CN2CC(F)(F)[C@H]3[C@@H]2CCN3CC[C@](C)(O)C(=O)O)NC(c2nccs2)=N[C@H]1c1ccc(F)c(F)c1Cl ; cells: HepG2.2.15 ; result: 0.028 µM
COc1ccc(-n2c(C(=O)NCc3cccc(C(F)(F)F)c3)c3n(c2=O)CCN(C(=O)c2ccc(Br)c(Cl)c2)C3)cc1 ; cells: HepG2.117 ; result: 0.1–0.5 µM
CNC(=O)c1ccc(-n2c(=O)c3c(n4ncc(NCc5ccccc5F)c24)CN(C(=O)c2ccc(Br)c(C#N)c2)CC3)cc1 ; cells: HepG2.117 ; setting: 3 d ; result: 0.1–0.5 µM
C[C@H](NC(=O)c1c2n(c(=O)n1-c1ccc(OC3CC3)cc1)CCN(C(=O)c1ccc(Br)c(Cl)c1)C2)c1ccc(OCC(N)=O)cc1F ; cells: HepG2.117 ; result: <0.1 µM
CCOC(=O)C1=C(CN2CC(F)(F)[C@@H]3[C@H]2CON3CC[C@](C)(O)C(=O)O)NC(c2nccs2)=N[C@H]1c1cccc(F)c1C ; cells: HepG2.2.15 ; result: >0.625 µM
O=C(NCc1ccccc1)c1c2n(c(=O)n1-c1ccccc1)CCN(C(=O)c1ccc(Br)c(Cl)c1)C2 ; cells: HepG2.117 ; result: 0.5–5 µM
COC(=O)C1=C(CN2CC(F)(F)[C@H]3[C@@H]2CCN3C[C@@](C)(O)C(=O)O)NC(c2nccs2)=N[C@H]1c1cccc(F)c1F ; cells: HepG2.2.15 ; result: 0.034 µM
Cn1nc2cc(NS(=O)(=O)N3CCCCC3)ccc2c1C(=O)Nc1ccc(F)c(Cl)c1 ; cells: HepAD38 ; result: 100–1000 µM
CCNC(=O)C(=O)N[C@@H]1CCCN(S(=O)(=O)c2cn(C)c(C(=O)Nc3cc(F)c(F)c(F)c3)c2F)C1 ; cells: HepAD38 cells ; result: <0.1 µM
CNC(=O)c1ccc(-n2c(=O)c3c(n4ncc(Cc5ccc(OC)cc5F)c24)CN(C(=O)c2ccc(Br)c(Cl)c2)CC3)cc1 ; cells: HepG2.117 ; setting: 3 d ; result: <0.1 µM
CCNC(=O)C(=O)N1CCC(NS(=O)(=O)c2cn(C)c(C(=O)Nc3ccc(F)c(Cl)c3F)c2F)CC1 ; cells: HepAD38 cells ; result: <0.1 µM
Cn1nc2cc(NS(=O)(=O)NC3CNC3)ccc2c1C(=O)Nc1ccc(F)c(Cl)c1 ; cells: HepAD38 ; result: >1000 µM
C#CC1(NC(=O)C(=O)c2c(C)c(C(=O)Nc3ccc(F)c(C#N)c3)n(C)c2C)CCCC1 ; cells: HepG2.2.15 ; result: 0.001–0.0099 µM
Cn1nc2cc(NS(=O)(=O)c3cnn(-c4cc(F)ccn4)c3)ccc2c1C(=O)Nc1ccc(F)c(Cl)c1 ; cells: HepAD38 ; result: >1000 µM
Cc1cc(C)n(-c2nc3c(c(=O)n2-c2cc(F)c4c(c2)ncn4C)C[C@@H](C)N(C(=O)c2ccc(Br)c(C(F)(F)F)c2)C3)n1 ; cells: HepG2.117 ; strain or isolate: Genotype D ; result: ≤0.05 µM
CNC(=O)c1ccc(-n2c(=O)c3c(n4ncc(Cc5ccc(OC)cc5)c24)CN(C(=O)c2ccc(Br)c(Cl)c2)CC3)cc1 ; cells: HepG2.117 ; setting: 3 d ; result: <0.1 µM
CCNC(=O)C(=O)N1CCC(NS(=O)(=O)c2cn(C)c(C(=O)Nc3cc(F)c(F)c(F)c3)c2Cl)CC1C ; cells: HepAD38 cells ; result: <0.1 µM
CCOC(=O)C1=C(CN2CC(F)(F)[C@@H]3[C@H]2CON3C[C@H](O)C(C)(C)C(=O)O)NC(c2nccs2)=N[C@H]1c1ccc(F)cc1Cl ; cells: HepG2.2.15 ; result: 0.036 µM
O=C(NCc1ccccc1)c1c2n(c(=O)n1-c1ccc3[nH]ccc3c1)CCN(C(=O)c1ccc(Br)c(Cl)c1)C2 ; cells: HepG2.117 ; result: 0.1–0.5 µM
Cc1cc(C)n(-c2nc3c(c(=O)n2-c2cc(C)c4c(c2)ncn4C)C[C@@H](C)N(C(=O)c2ccc(Br)c(C(F)(F)F)c2)C3)n1 ; cells: HepG2.117 ; strain or isolate: Genotype D ; result: ≤0.05 µM
Cn1nc2cc(S(=O)(=O)NC3CN(C(=O)OC(C)(C)C)C3)ccc2c1C(=O)Nc1ccc(F)c(Cl)c1 ; cells: HepAD38 ; result: 100–1000 µM
C[C@H](NC(=O)c1c2n(c(=O)n1-c1ccc(-n3cccn3)cc1)CCN(C(=O)c1ccc(Br)c(Cl)c1)C2)c1ccccc1F ; cells: HepG2.117 ; result: 0.5–5 µM
CNC(=O)c1ccc(-n2c(-n3nc(C)cc3C)nc3c(c2=O)C[C@@H](C)N(C(=O)c2ccc(Br)c(C(F)(F)F)c2)C3)cc1N ; cells: HepG2.117 ; strain or isolate: Genotype D ; result: ≤0.05 µM
C=C[C@](C)(CO)NC(=O)C(=O)c1c(C)c(C(=O)Nc2ccc(F)c(C(F)(F)F)c2)n(C)c1C ; cells: HepG2.2.15 ; result: 0.001–0.0099 µM
CNC(=O)c1ccc(-n2c(=O)c3c(n4ncc(NCc5ccc(OC(F)F)cc5)c24)CN(C(=O)c2ccc(Cl)c(Cl)c2)CC3)cc1 ; cells: HepG2.117 ; setting: 3 d ; result: 0.5–5 µM
Cn1nc2cc(NS(=O)(=O)c3cnn(C4CN(C(=O)OC(C)(C)C)C4)c3)ccc2c1C(=O)Nc1ccc(F)c(Cl)c1 ; cells: HepAD38 ; result: 100–1000 µM
CCOC(=O)C1=C(CN2CC(F)(F)[C@@H]3[C@H]2CON3CCCC(C)(O)C(=O)O)NC(c2nccs2)=N[C@H]1c1cccc(F)c1C ; cells: HepG2.2.15 ; result: 0.29 µM
C#C[C@@H](CO)NC(=O)C(=O)c1c(C)c(C(=O)Nc2ccc(F)c(C#N)c2)n(C)c1C ; cells: HepG2.2.15 ; result: 0.001–0.0099 µM
CCOC(=O)C1=C(CN2CC(F)(F)[C@@H]3[C@H]2CON3C[C@@H](OC)C(C)(C)C(=O)O)NC(c2nccs2)=N[C@H]1c1ccc(F)c(F)c1Cl ; cells: HepG2.2.15 ; result: 0.001 µM
C=C[C@](C)(CO)NC(=O)C(=O)c1c(C)c(C(=O)Nc2ccc(F)c(C#N)c2)n(C)c1C ; cells: HepG2.2.15 ; result: 0.001–0.0099 µM
COc1ccc(-n2c(C(=O)NCc3ccc(OC(C)C)cc3)c3n(c2=O)CCN(C(=O)c2ccc(Br)c(Cl)c2)C3)cc1 ; cells: HepG2.117 ; result: 0.1–0.5 µM
Cc1c(C(=O)C(=O)NC(C)(C)c2ccc[nH]c2=O)c(C)n(C)c1C(=O)Nc1ccc(F)c(C#N)c1 ; cells: HepG2.2.15 ; result: 0.001–0.0099 µM
Cc1cc(C)n(-c2nc3c(c(=O)n2-c2cnc4c(c2)ncn4C)C[C@@H](C)N(C(=O)c2ccc(Br)c(C(F)(F)F)c2)C3)n1 ; cells: HepG2.117 ; strain or isolate: Genotype D ; result: ≤0.05 µM
Cc1c(C(=O)C(=O)NC(C)(C)c2ccccn2)c(C)n(C)c1C(=O)Nc1ccc(F)c(C(F)(F)F)c1 ; cells: HepG2.2.15 ; result: 0.001–0.0099 µM
CCOC(=O)C1=C(CN2CC(F)(F)[C@@H]3[C@H]2CON3C[C@@H](F)C(C)(C)C(=O)O)NC(c2nccs2)=N[C@H]1c1ccc(F)c(F)c1Cl ; cells: HepG2.2.15 ; result: 0.002 µM
Cc1c(C(=O)C(=O)NC(C)(C)c2ncc[nH]2)c(C)n(C)c1C(=O)Nc1ccc(F)c(C(F)(F)F)c1 ; cells: HepG2.2.15 ; result: 0.001–0.0099 µM
O=C(c1ccc(Br)c(Cl)c1)N1CCc2c(n3ncc(Cc4ccccc4)c3n(-c3ccccc3)c2=O)C1 ; cells: HepG2.117 ; setting: 3 d ; result: 0.1–0.5 µM
C=C[C@@](CO)(NC(=O)C(=O)c1c(C)c(C(=O)Nc2ccc(F)c(C#N)c2)n(C)c1C)C(F)(F)F ; cells: HepG2.2.15 ; result: 0.001–0.0099 µM
Cn1nc2cc(NS(=O)(=O)c3cn[nH]c3)ccc2c1C(=O)Nc1ccc(F)c(Cl)c1 ; cells: HepAD38 ; result: 100–1000 µM

Repeating the final 6 entries:

compound | cells | setting | strain or isolate | result
Cc1c(C(=O)C(=O)NC(C)(C)c2ccccn2)c(C)n(C)c1C(=O)Nc1ccc(F)c(C(F)(F)F)c1 | HepG2.2.15 |  |  | 0.001–0.0099 µM
CCOC(=O)C1=C(CN2CC(F)(F)[C@@H]3[C@H]2CON3C[C@@H](F)C(C)(C)C(=O)O)NC(c2nccs2)=N[C@H]1c1ccc(F)c(F)c1Cl | HepG2.2.15 |  |  | 0.002 µM
Cc1c(C(=O)C(=O)NC(C)(C)c2ncc[nH]2)c(C)n(C)c1C(=O)Nc1ccc(F)c(C(F)(F)F)c1 | HepG2.2.15 |  |  | 0.001–0.0099 µM
O=C(c1ccc(Br)c(Cl)c1)N1CCc2c(n3ncc(Cc4ccccc4)c3n(-c3ccccc3)c2=O)C1 | HepG2.117 | 3 d |  | 0.1–0.5 µM
C=C[C@@](CO)(NC(=O)C(=O)c1c(C)c(C(=O)Nc2ccc(F)c(C#N)c2)n(C)c1C)C(F)(F)F | HepG2.2.15 |  |  | 0.001–0.0099 µM
Cn1nc2cc(NS(=O)(=O)c3cn[nH]c3)ccc2c1C(=O)Nc1ccc(F)c(Cl)c1 | HepAD38 |  |  | 100–1000 µM